Pooled drug test results. Numbers come from NIAID ChemDB, via PubChem.

Shared fields: whole-cell or culture tests; agent: Mycobacterium bovis BCG

Rows are shuffled and stem from different studies.

compound	strain	setting	changes	endpoint	method	result
O=c1[nH]c(=S)c(CO)cn1C1OC(CO)C(O)C1O	-	-	-	MIC100	resazurin	50 µg/mL
O=C(C1CCN(c2nnc(-n3cccc3)s2)CC1)N1CCC(Cc2ccccc2)CC1	recG	-	DprE1 mutant (E221Q)	MIC	fluorescence	25 µM
COc1ccc2nc(C)cc(NCCc3ccc(OC(F)(F)F)cc3)c2c1	-	-	-	MIC50	luminescence	20 µM
C[C@H]1COC2(CCN(c3nc(=O)c4cc(C(F)(F)F)cc([N+](=O)[O-])c4s3)CC2)O1	recG	-	DprE1 mutant (E221Q)	MIC	fluorescence	0.018 µM
CCCCCCCCCCCCCC#CCC#CC(=O)O	mc22421	-	-	MIC99	-	21.5 µM
CC(C)(C)c1ccccc1OCCCON1C(N)=NC(N)=NC1(C)C	-	-	-	MIC	fluorescence	3.6 µM
Fc1ccc2c(Nc3ccc(-c4cccc(C(F)(F)F)c4)cc3)ncnc2c1	-	-	-	MIC50	luminescence	>50 µM
NC(=O)NO	-	-	-	MIC100	visual reading	>380 µg/mL
CCCCCCCCC#CCCCCCCC#CC(=O)O	Pasteur	-	-	MIC	-	5.4 µM
CC(=O)Nc1ccc(/C=N/n2cn[nH]c2=S)cc1	-	24 h	-	MIC	broth dilution / resazurin	125 µg/mL
FC(F)(F)c1ccc(N2CCC(Oc3ccc(Nc4ncnc5ccccc45)cc3)CC2)cc1	-	-	-	MIC50	luminescence	>10 µM
CCCCCCCCCCCCCCCCCC#CC(=O)O	Pasteur	-	-	MIC	-	40.5 µM
Nc1ccc(C(=O)O)c(O)c1	-	-	-	MIC	fluorescence	0.5 µM
CCc1ccc(-c2cc(CN3CCOCC3)c(C)n2-c2ccc(F)cc2)cc1	M8	-	L320P S258G	MIC	-	0.63 µM
Clc1ccc(Oc2cccc(CNc3ncnc4ccccc34)c2)cc1	-	-	-	MIC50	luminescence	>50 µM
Cc1c(CN2CCN(C)CC2)cc(-c2ccc(Cl)cc2)n1-c1ccc(Cl)cc1	M1	-	L320R E466K I585V	MIC	-	15.04 µM
C#CCCCCCCCCCCCCC#CC(=O)O	Pasteur	-	-	MIC	-	1.5 µM
FS(F)(F)(F)(F)c1ccc(CCNc2ncnc3ccoc23)cc1	-	-	-	MIC50	luminescence	>20 µM
CCc1nc2ccc(Cl)cn2c1C(=O)NCc1ccc(N2CCC(c3ccc(OC(F)(F)F)cc3)CC2)cc1	-	-	bd oxidase knockout	MIC50	broth dilution	0.0016 µM
Cc1ccc2ncnc(NCCc3ccc(OC(F)(F)F)cc3)c2c1	-	-	-	MIC50	luminescence	>20 µM
NC(=S)N/N=C/c1cccnc1	NCTC 5692 ethR::hyg	-	-	MIC	-	5 µg/mL
Cc1nc(NCCc2ccc(C(F)(F)F)cc2)c2ccccc2n1	-	-	-	MIC50	luminescence	10 µM
CC(=O)Nc1ccc(/C=N/NC(N)=S)cc1	Carrying pMV261-ethA	-	-	MIC	-	0.25 µg/mL
FC(F)(F)c1ccc(Oc2ccc(Nc3ncnc4nc[nH]c34)cc2)cc1	-	-	-	MIC50	luminescence	>20 µM
CCCCCCCCCCCCCCCC#CC(=O)Oc1nccnc1C(=O)OCCC	Pasteur	-	-	MIC	-	6 µM
CCc1cn(C2OC(COC(C)=O)C(OC(C)=O)C2F)c(=O)[nH]c1=O	-	-	-	MIC75	resazurin	100 µg/mL
CCCCCCCCCCCCCCSCC#CC(=O)O	mc22421	-	-	MIC99	-	2.1 µM
N#Cc1ccc(Oc2ccc(Nc3ncnc4ccccc34)cc2)nc1	-	-	-	MIC50	luminescence	>50 µM
CCCCCCSCCCCCCCCCCCCC#CC(=O)O	mc22421	-	-	MIC99	-	2.2 µM
FC(F)(F)c1ccc(N2CCCN(c3ccc(Nc4ncnc5ccccc45)cc3)CC2)cc1	-	-	-	MIC50	luminescence	>50 µM
O=C(NCCOCCOCCNC(=O)c1ccc2c(c1)B(O)OC2)c1ccc2c(c1)B(O)OC2	-	-	-	MIC	visual reading / absorbance	780 µM
Clc1ccc(Oc2ccc(Nc3ncnc4ccccc34)cc2)cc1Cl	-	-	-	MIC50	luminescence	>20 µM
Cc1ccc(-c2cc(CN3CCOCC3)c(C)n2-c2ccc(F)cc2)cc1	WILD TYPE	-	-	MIC	-	0.08 µM

The first 2 rows once more:

compound	strain	setting	changes	endpoint	method	result
O=c1[nH]c(=S)c(CO)cn1C1OC(CO)C(O)C1O	-	-	-	MIC100	resazurin	50 µg/mL
O=C(C1CCN(c2nnc(-n3cccc3)s2)CC1)N1CCC(Cc2ccccc2)CC1	recG	-	DprE1 mutant (E221Q)	MIC	fluorescence	25 µM

Blank or dashed fields: not listed here. A number after MIC or MFC names an inhibition level or a share of isolates.